# Experiments:
# Amino acid sequences for entries named in this document (tags omitted). A change or cut given only in a name is not applied to a line headed by its entry.
# UniProt P41146: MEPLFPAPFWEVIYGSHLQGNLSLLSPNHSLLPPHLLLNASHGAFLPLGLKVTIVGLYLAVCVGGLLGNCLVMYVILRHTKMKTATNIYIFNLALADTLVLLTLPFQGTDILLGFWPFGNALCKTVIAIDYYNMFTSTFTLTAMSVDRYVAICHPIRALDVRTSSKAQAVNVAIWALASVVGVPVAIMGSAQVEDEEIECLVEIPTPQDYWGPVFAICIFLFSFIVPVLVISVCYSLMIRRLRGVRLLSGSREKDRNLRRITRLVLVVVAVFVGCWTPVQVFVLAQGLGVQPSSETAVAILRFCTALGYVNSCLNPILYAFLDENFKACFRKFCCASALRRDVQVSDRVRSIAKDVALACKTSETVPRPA
# UniProt P35372, whole entry, looked up: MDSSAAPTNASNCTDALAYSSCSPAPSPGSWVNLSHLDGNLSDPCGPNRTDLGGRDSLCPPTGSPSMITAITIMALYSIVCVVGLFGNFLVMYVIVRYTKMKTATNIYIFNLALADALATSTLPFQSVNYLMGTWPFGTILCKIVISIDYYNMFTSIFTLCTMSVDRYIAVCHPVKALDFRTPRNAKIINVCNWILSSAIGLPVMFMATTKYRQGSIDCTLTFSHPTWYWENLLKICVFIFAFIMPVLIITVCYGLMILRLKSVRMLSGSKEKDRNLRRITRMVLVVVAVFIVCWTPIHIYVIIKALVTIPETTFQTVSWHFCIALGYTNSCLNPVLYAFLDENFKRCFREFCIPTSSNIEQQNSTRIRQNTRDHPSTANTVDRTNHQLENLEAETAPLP
# UniProt P41145: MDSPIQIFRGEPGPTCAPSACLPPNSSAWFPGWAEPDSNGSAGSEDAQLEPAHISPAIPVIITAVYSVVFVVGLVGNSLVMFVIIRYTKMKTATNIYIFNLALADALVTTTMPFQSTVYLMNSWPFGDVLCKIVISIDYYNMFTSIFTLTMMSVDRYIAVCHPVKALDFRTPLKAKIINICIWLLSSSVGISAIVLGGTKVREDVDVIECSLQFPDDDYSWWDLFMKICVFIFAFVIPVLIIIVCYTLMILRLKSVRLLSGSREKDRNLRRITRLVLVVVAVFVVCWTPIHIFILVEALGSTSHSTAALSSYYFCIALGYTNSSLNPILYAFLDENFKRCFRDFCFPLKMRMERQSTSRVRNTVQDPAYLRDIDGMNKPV
# human NOP [1] = molecular target: T1, human NOP (Homo sapiens, UniProt P41146); experiment: GIRK channel-based fluorescent membrane potential assay in AtT-20 cells; conditions: for agonist efficacy at NOP in GIRK assay (in words): compared to N/OFQ; for GIRK NOP Emax: normalized to 1 µM N/OFQ set at 100%; for EC50: read-out: GIRK NOP EC50, stably transfected AtT-20 cells
# human MOP [2] = molecular target: T2, human MOP (Homo sapiens, UniProt P35372); experiment: as above; conditions: for agonist efficacy at MOP in GIRK assay (in words): compared to DAMGO; for GIRK MOP Emax: normalized to 1 µM DAMGO set at 100%; for EC50: read-out: GIRK MOP EC50, stably transfected AtT-20 cells
# [3] = supra-analgesic doses, nonhuman primates; cited from earlier work
# human NOP [4] = molecular target: T1, human NOP; experiment: [35S]GTPγS binding assay, CHO cell membranes; conditions: for [35S]GTPγS NOP % Stim: % stimulation normalized to N/OFQ set at 100%; for EC50: read-out: [35S]GTPγS NOP EC50, stably transfected CHO cells; for agonist efficacy at NOP in [35S]GTPγS binding (in words): relative to N/OFQ
# human MOP [5] = molecular target: T2, human MOP; experiment: [35S]GTPγS binding assay, CHO cell membranes; conditions: for [35S]GTPγS MOP % Stim: % stimulation normalized to DAMGO set at 100%; for EC50: read-out: [35S]GTPγS MOP EC50, stably transfected CHO cells; for agonist efficacy at MOP in [35S]GTPγS binding (in words): relative to DAMGO
# human NOP [6] = molecular target: T1, human NOP; experiment: Radioligand displacement competition binding, [3H]N/OFQ, CHO cell membranes; conditions: for affinity at NOP (in words): radioligand displacement; for Ki: read-out: Radioligand Displacement Ki, NOP, CHO cells stably expressing NOP, [3H]N/OFQ
# human MOP [7] = molecular target: T2, human MOP; experiment: Radioligand displacement competition binding, [3H]DAMGO, CHO cell membranes; conditions: read-out: Radioligand Displacement Ki, MOP, CHO cells stably expressing MOP
# KOP = KOP (Homo sapiens, UniProt P41145); experiment: Radioligand displacement binding in CHO cells stably expressing KOP; conditions: read-out: Radioligand Displacement Ki, KOP
# [8] = molecular target: MOP receptor (T370, S375, T376, T379) (Homo sapiens, UniProt P35372); experiment: Agonist-induced receptor phosphorylation, Western blot with phosphosite-specific antibodies, HEK293 cells; conditions: 10^-5 to 10^-9 M, sites T370, S375, T376, T379, listed as cebranopadol
# [9] = molecular target: NOP receptor (S346, S351, T362/S363) (Homo sapiens, UniProt P41146); experiment: as above; conditions: 10^-5 to 10^-9 M
structure (smiles),measurement,setting,value
CC(C)[C@H]1CC[C@@H](N2CCC3(CC2)C(=O)N(CCNS(N)(=O)=O)Cc2ccccc23)CC1 [AT-121],agonist efficacy at NOP in GIRK assay (in words),human NOP [1],partial agonist efficacy
same,GIRK NOP Emax,human NOP [1],69.7%
same,EC50,human NOP [1],0.0061 µM
same,agonist efficacy at MOP in GIRK assay (in words),human MOP [2],lowest Emax
same,GIRK MOP Emax,human MOP [2],66.7%
same,EC50,human MOP [2],0.0278 µM
same,respiratory or cardiovascular functions,[3],did not compromise respiratory or cardiovascular functions
same,[35S]GTPγS NOP % Stim,human NOP [4],41.1 ± 0.3%
same,EC50,human NOP [4],0.0347 µM
same,agonist efficacy at NOP in [35S]GTPγS binding (in words),human NOP [4],partial agonist efficacy
same,[35S]GTPγS MOP % Stim,human MOP [5],14.2 ± 0.4%
same,EC50,human MOP [5],0.0196 µM
same,affinity at NOP (in words),human NOP [6],high affinity
same,Ki,human NOP [6],0.00367 µM
same,Ki,human MOP [7],0.0142 µM
same,Ki,KOP,0.0408 µM
CCC1C(=O)N(C2CCN(CCC(c3ccccc3)c3ccccc3)CC2)c2ccccc21 (centres unmarked) [AT-034],agonist efficacy at NOP in GIRK assay (in words),human NOP [1],partial agonist efficacy
same,EC50,human NOP [1],0.174 µM
same,agonist efficacy at MOP in GIRK assay (in words),human MOP [2],high agonist efficacy
same,EC50,human MOP [2],0.0236 µM
same,EC50,human NOP [4],0.124 µM
same,agonist efficacy at NOP in [35S]GTPγS binding (in words),human NOP [4],high intrinsic activity
same,EC50,human MOP [5],0.0395 µM
same,agonist efficacy at MOP in [35S]GTPγS binding (in words),human MOP [5],full intrinsic activity
same,affinity at NOP (in words),human NOP [6],moderate affinity
same,Ki,human NOP [6],0.0766 µM
same,Ki,human MOP [7],0.00197 µM
same,Ki,KOP,0.0884 µM
CN(C)[C@]1(c2ccccc2)CC[C@]2(CC1)OCCc1c3cc(F)ccc3[nH]c12,agonist-induced MOP phosphorylation (in words),[8],"robust phosphorylation at T370, S375, T376 and moderate phosphorylation at T379"
same,agonist-induced NOP phosphorylation (in words),"[9]; sites S346, S351, T362/S363",weak NOP phosphorylation at S346
same,agonist-induced NOP phosphorylation (in words),"[9]; sites S346, S351, T362/S363, listed as cebranopadol","failed to elicit phosphorylation at NOP, except for very weak phosphorylation at the primary site S346"
same,agonist efficacy at NOP in GIRK assay (in words),human NOP [1],partial agonist efficacy
same,GIRK NOP Emax,human NOP [1],50%
same,EC50,human NOP [1],0.0719 µM
same,agonist efficacy at MOP in GIRK assay (in words),human MOP [2],superagonist activity
same,GIRK MOP Emax,human MOP [2],127%
same,EC50,human MOP [2],0.0589 µM
same,[35S]GTPγS NOP % Stim,human NOP [4],86.40 ± 5.34%
same,agonist efficacy at NOP in [35S]GTPγS binding (in words),human NOP [4],high intrinsic activity
same,[35S]GTPγS MOP % Stim,human MOP [5],100.40 ± 0.58%
same,agonist efficacy at MOP in [35S]GTPγS binding (in words),human MOP [5],full intrinsic activity
same,affinity at NOP (in words),human NOP [6],high affinity
CC(C)[C@H]1CC[C@@H](N2CCC3(CC2)C(=O)N(CCNS(N)(=O)=O)CN3c2ccccc2)CC1,agonist-induced NOP phosphorylation (in words),"[9]; sites S346, S351, T362/S363",no phosphorylation of NOP at any of the tested sites
same,agonist efficacy at NOP in GIRK assay (in words),human NOP [1],full intrinsic activity
same,GIRK NOP Emax,human NOP [1],101.0%
same,EC50,human NOP [1],0.0006 µM
same,agonist efficacy at MOP in GIRK assay (in words),human MOP [2],high agonist efficacy
same,GIRK MOP Emax,human MOP [2],83.1%
same,EC50,human MOP [2],0.0012 µM
same,[35S]GTPγS NOP % Stim,human NOP [4],101 ± 0.7%
same,EC50,human NOP [4],0.0122 µM
same,agonist efficacy at NOP in [35S]GTPγS binding (in words),human NOP [4],full intrinsic activity
same,[35S]GTPγS MOP % Stim,human MOP [5],35.1 ± 6.5%
same,EC50,human MOP [5],0.0209 µM
same,agonist efficacy at MOP in [35S]GTPγS binding (in words),human MOP [5],partial agonist efficacy
same,affinity at NOP (in words),human NOP [6],high affinity
same,Ki,human NOP [6],0.00128 µM
same,Ki,human MOP [7],0.00146 µM
same,Ki,KOP,0.0228 µM

# — article PMC9065038 (Scientific Reports, 2022)
